# Reference: PubChem BioAssay AID602481 (Broad Institute, 2012)
# The entries are a selection whose mix differs from that of the whole data set. Active and inactive are the calls of the source. No stated cut-off is given here; in the data, active means inhibition above about 40%; inconclusive means no clear call, values can overlap the other calls; inactive means below that.
# System: 7,8-diaminopelargonic acid synthase BioA (Mycobacterium tuberculosis)
# Assay: M. tuberculosis BioA enzyme inhibitors, primary screen, biochemical, plate reader, single point, HTS (AID 602481)
# Settings: purified M. tuberculosis BioA enzyme, at 9.99 µM, hits give high values
row,Compound,inhibition
1,ClCCSc1nnc(-c2cccnc2)o1,inactive: 2.73%
2,CC(C)c1ccc(OP(=O)(Nc2ccccn2)Oc2ccccc2F)cc1 (stereo not drawn),inactive: -0.226%
3,CCN(CC)C(=S)SC(NC=O)C(Cl)(Cl)Cl (stereo not drawn),inactive: -0.542%
4,O=C(OC1CN2CCC1CC2)c1cccc2[nH]cnc12 (stereo not drawn),inactive: -0.731%
5,O=[N+]([O-])c1ccc(-c2cc([N+](=O)[O-])c(O)c([N+](=O)[O-])c2)cc1,inactive: 1.13%
6,C[As](=O)(O)c1cccc(C(=O)O)c1,inactive: -0.671%
7,O=[As](O)(c1ccc(O)cc1)c1ccccc1O,inactive: 0.504%
8,Cc1ccc(OP(=O)(Nc2ccc([N+](=O)[O-])cn2)Oc2ccc(C)cc2)cc1,inactive: -2.7%
9,COc1ccc(N/C(=N/P(=O)(N2CCOCC2)N2CCOCC2)N2CCOCC2)cc1,inactive: -0.477%
10,Cc1cc(=O)[nH]c(N[N+](=O)[O-])n1,inactive: -0.935%
11,O=C(OC1CN2CCC1CC2)C12CC3CC(CC(C3)C1)C2 (stereo not drawn),inactive: -0.705%
12,O=P1(N(CCCl)CCCl)Nc2ccccc2N1,inactive: -2.94%
13,COc1ccc(CN2/C(=N\P(=O)(Oc3ccccc3)Oc3ccccc3)Cc3ccccc3C2C2CC2)cc1 (stereo not drawn),inactive: -1.32%
14,COc1cc(I)ccc1[As](=O)(O)O,inactive: 1.99%
15,CSc1ccc(Nc2c([N+](=O)[O-])cc([N+](=O)[O-])cc2[N+](=O)[O-])cc1,inactive: -4.2%
16,O=C(OC1CN2CCC1CC2)c1cccc([N+](=O)[O-])c1 (stereo not drawn),inactive: 0.111%
17,CCOC(=O)c1ccc(NC(=O)C(C)(CCl)SC)cc1 (stereo not drawn),inactive: -0.989%
18,CCC(C)N(CC(C)C)C(=S)SC(NC(C)=O)C(Cl)(Cl)Cl (stereo not drawn),inactive: 0.166%
19,COP1(=S)c2c(C)nn(CCC#N)c2N=C(c2ccc(F)cc2)N1C (stereo not drawn),inactive: 2.23%
20,O=C(O)C(=O)c1ccc(N(CCCl)CCCl)cc1,inactive: -0.771%
21,O=C(Nc1ccncc1[N+](=O)[O-])c1ccc([N+](=O)[O-])cc1[N+](=O)[O-],inactive: -1.9%
22,O=C(COc1ccccc1)OC1CN2CCC1CC2 (stereo not drawn),inactive: -1.82%
23,CCOC(=O)Nc1cccc([As](=O)(O)O)c1,inactive: -0.368%
24,O=[N+]([O-])c1ccc(Nc2ccc(Oc3ccc([N+](=O)[O-])cc3[N+](=O)[O-])cc2)c([N+](=O)[O-])c1,inactive: -0.594%
25,O=C(O)C(O)c1ccc(N(CCCl)CCCl)cc1 (stereo not drawn),inactive: -3.04%

row,Compound,inhibition
1,CCOC(=O)Nc1ccc([As](=O)(O)O)c(O)c1,inactive: -0.26%
2,CC1CCNP(=O)(N(CCCl)CCCl)O1 (stereo not drawn),inactive: -1.13%
3,COP(=O)(OC)N1CC1c1ccccc1 (stereo not drawn),inactive: 0.135%
4,CCCCOc1ccc(C(=O)NCC2(N3CCCCC3)CCCCC2)cc1OC,inactive: -3.98%
5,Cc1ccc(S(=O)(=O)N(CCCN)CCCc2c(C)nc(N)[nH]c2=O)cc1,inactive: 1.68%
6,O=P1(Nc2ncccn2)COc2ccccc2OC1,inactive: -0.31%
7,Nc1cccc([As](=O)(O)c2ccccc2)c1,inactive: -0.994%
8,NS(=O)(=O)c1cccc(NC(=O)COC(=O)C(O)(c2ccccc2)c2ccccc2)c1,inactive: 8.36%
9,O=P1(Nc2ccc(Br)cn2)COc2ccccc2OC1,inactive: 6.52%
10,Cc1ccc(OCC(=O)OC2CN3CCC2CC3)cc1 (stereo not drawn),inactive: -0.275%
11,O=[As](O)(c1cccs1)c1cccs1,inactive: 0.538%
12,Cc1ccc(C(=O)OC2CN3CCC2CC3)cc1 (stereo not drawn),inactive: -0.542%
13,CC1CCC(C(C)C)C(OP(=O)(Nc2ccccn2)c2ccccc2)C1 (stereo not drawn),inactive: 1.24%
14,Cc1nn(-c2ccccc2)c2c1P(=O)(N1CCOCC1)N(C)C(c1ccccc1)=N2 (stereo not drawn),inactive: 1.47%
15,CN(C(=O)Cc1ccc(Cl)c(Cl)c1)[C@@H]1CCCC[C@H]1N1CCCC1,inactive: -1.98%
16,CC(C)/C=N\N=C(\N)N[N+](=O)[O-],inactive: -2.52%
17,CCOP(=O)(NC(=NC(C)c1ccccc1)NC(C)c1ccccc1)OCC (stereo not drawn),inactive: 0.578%
18,CCC1=CC2Cc3nc4ccc(Cl)cc4c(N)c3C(C1)C2 (stereo not drawn),inactive: 0.054%
19,O=P1(Nc2ccccn2)COc2ccccc2OC1,inactive: -0.311%
20,CN(CCCl)Cc1cc(Cl)c(NC2=NCCN2)c(Cl)c1,inactive: 0.453%
21,CC(C)(C)C(=O)NC(Sc1ncccn1)C(Cl)(Cl)Cl (stereo not drawn),inactive: 0.801%
22,Clc1n[nH]nc1-c1nn[nH][15n]1,inactive: -2.07%
23,O=P1(N(CCCl)CCCl)NCCC(C(F)(F)F)O1 (stereo not drawn),inactive: 0.895%
24,Cc1ccc(NCCc2c([N+](=O)[O-])cc([N+](=O)[O-])cc2[N+](=O)[O-])cc1,inactive: -0.958%
25,Nc1cccc2c([As](=O)(O)O)cccc12,inactive: -7.78%

row,Compound,inhibition
1,CCCOP(=S)(Nc1nc(N)cc(=O)[nH]1)OCCC,inactive: 0.396%
2,O=C(OC1CN2CCC1CC2)c1ccc(Cl)cc1 (stereo not drawn),inactive: 0.58%
3,CS(=O)(=O)c1ccc(Cl)c(NC(=O)COC(=O)C(O)(c2ccccc2)c2ccccc2)c1,inactive: 5%
4,O=[As](O)(O)c1cccnc1,inactive: -0.254%
5,O=[As](O)(c1cccc(O)c1)c1cccc(O)c1,inactive: -2.39%
6,Cc1cccc(OCC(=O)OC2CN3CCC2CC3)c1 (stereo not drawn),inactive: 0.481%
7,NC(=O)Nc1ccc([As](=O)(O)O)cc1,inactive: -1.26%
8,CN(C(=O)Cc1ccccc1)[C@@H]1CC[C@]2(CCCO2)C[C@H]1N1CCCC1,inactive: -1.13%
9,CCOP1(=S)c2c(C)nn(CCC#N)c2N=C(c2ccc(F)cc2)N1C (stereo not drawn),inactive: 2.32%
10,N#CCCN(C(=O)COC(=O)C(O)(c1ccccc1)c1ccccc1)c1ccc(F)cc1,inactive: 0.0095%
11,CN(C(=O)Cc1ccc(Cl)c(Cl)c1)[C@H]1CC[C@@]2(CCCO2)C[C@@H]1N1CCCC1,inactive: -0.203%
12,CN(C)C(=O)c1cc([N+](=O)[O-])cc2c1-c1c(cc([N+](=O)[O-])cc1[N+](=O)[O-])C2=O,inactive: 1.4%
13,O=[N+]([O-])c1ccc2c(c1)nnn2O,inactive: -1.11%
14,O=P(Nc1nccs1)(c1ccccc1)c1nc2ccccc2s1 (stereo not drawn),inactive: 0.591%
15,CCOP1(=S)c2c(C)nn(CCC#N)c2N=C(c2ccccc2F)N1C (stereo not drawn),inactive: 1.27%
16,O=C(O)COc1ccc([As](=O)(O)O)cc1[N+](=O)[O-],inactive: -0.213%
17,Nc1ccccc1[As](=O)(O)c1ccccc1,inactive: -1.31%
18,CCC(=O)N1C2C3N(C(=O)CC)C1C1N(C(=O)CC)C(C(N1C(=O)CC)N3C(=O)CC)N2C(=O)CC,inactive: -2.16%
19,O=C(OC1CN2CCC1CC2)c1ccccc1 (stereo not drawn),inactive: 0.725%
20,CC(=O)NC(SC(=S)N(CC(C)C)CC(C)C)C(Cl)(Cl)Cl (stereo not drawn),inactive: -0.701%
21,COC(=O)c1cc2c(s1)N=C(c1ccccc1)N(C)P2(=O)N1CCOCC1 (stereo not drawn),inactive: -4.71%
22,CN(C)C(=O)Oc1noc2ccccc12,inactive: 0.084%
23,CC(NC(=O)COC(=O)C(O)(c1ccccc1)c1ccccc1)c1ccccc1 (stereo not drawn),inactive: 0.15%
24,Cc1ccc(NP(=O)(Oc2cccc(C)c2)Oc2cccc(C)c2)nc1,inactive: -1.09%
25,CCNC(=S)/N=C(\N)N[N+](=O)[O-],inactive: 0.897%

row,Compound,inhibition
1,O=P1(N(CCCl)CCCl)OCCC2CCCCN21 (stereo not drawn),inactive: -3.78%
2,C[C@@H]1C=CCP(=O)(Oc2ccccc2)O1 (stereo partly drawn),inactive: -1.3%
3,C[C@H]1OP(=O)(Oc2ccccc2)C[C@@H]2O[C@@H]21 (stereo partly drawn),inactive: -1.58%
4,Cc1ccccc1CN(C)C(=O)COC(=O)C(O)(c1ccccc1)c1ccccc1,inactive: -0.335%
5,CC(=O)c1ccc(N2CC2c2ccncc2)cc1 (stereo not drawn),inactive: 0.949%
6,CC(=O)Nc1ccc(Oc2c([N+](=O)[O-])cc([N+](=O)[O-])cc2[N+](=O)[O-])cc1,inactive: -1.79%
7,CC(=O)Nc1ccc([As](=O)(O)O)c(O)c1,inactive: -0.589%
8,O=P1(Nc2nc3ccc(Cl)cc3s2)COc2ccccc2O1 (stereo not drawn),inactive: -1.88%
9,CCc1cc(O)c([N+](=O)[O-])c(C)c1[N+](=O)[O-],inactive: 0.262%
10,O=P(Nc1nccs1)(c1ccccc1)c1ccccc1,inactive: -0.58%
11,c1nnnn1CCn1cnnn1,inactive: -1.47%
12,O=[As](O)(c1ccccc1)c1ccc(O)cc1,inactive: -2.15%
13,CC(=O)NC(SC(=S)N(C)C)C(Cl)(Cl)Cl (stereo not drawn),inactive: -0.624%
14,O=[N+]([O-])c1ccc(O)c(/C=N/Nc2ccc([N+](=O)[O-])cc2[N+](=O)[O-])c1,inactive: -4.26%
15,O=C(OC1CN2CCC1CC2)c1cccc(Cl)c1 (stereo not drawn),inactive: -0.599%
16,Nc1ccc([As](=O)(O)c2ccc([N+](=O)[O-])cc2)cc1,inactive: 4.6%
17,CN(C)C1(CNC(=O)c2ccc(Cl)c(S(N)(=O)=O)c2)CCCCC1,inactive: 0.342%
18,O=P(Nc1ccccn1)(c1ccc(Br)cc1)c1ccc(Br)cc1,inactive: -2.41%
19,Nc1ccc(CCCCOc2ccccc2)cc1,inactive: 2.8%
20,COc1ccc(N)c([N+](=O)[O-])c1[N+](=O)[O-],inactive: 2.24%
21,C[C@H]1OP(=O)(Oc2ccccc2)[C@H](O)[C@H](O)[C@H]1N=[N+]=[N-] (stereo partly drawn),inactive: -41.8%
22,O=P(Nc1nc2ccccc2s1)(c1ccccc1)c1ccccc1,inactive: -2.41%
23,O=C(O)CNc1ccc([As](=O)(O)O)cc1,inactive: -2.31%
